Source: PubChem BioAssay AID504761 (Drosophila RNAi Screening Center, 2011)
Test: 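Fly genes whose silencing reduces dengue virus type 2 infection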 (primary screen). Cell system: D.Mel-2 cells from Drosophila. Knock-down reagent: long dsRNA against Drosophila genes. Challenge: infection with dengue virus type 2; dose and infection time not stated. Measurement: 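Per well on two replicate plates, imaging gave the percent of cells positive for viral envelope protein, ranked by infection, and a nuclear count of cells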. Reading the numbers: infection score: higher = more virus-infected cells. Hit rule: 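Low infection ranks in the two replicates (chance level up to 0.065) followed by a retest with a 1.5-fold or larger significant decrease, p below 0.05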. Meaning of the calls: active = confirmed: knock-down lowers infection; inactive = not picked or not confirmed.
The screen tested about 22,000 reagents; shown is an unselected part of those that have a named target and a result. Of all reagents, 116 (0.52%) got an active call. 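Calls depend on retest data that are not deposited; infection was ranked per plate without normalising between plates; the unit of the infection score is not given.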 A number with no mark means an inactive call. The numbers tell different reagents against one gene apart. Further read-outs or replicates are left out here. Not given: the amount of reagent, the time to read-out.

How did the screen score CG6908 #1?
infection score, replicate 1: 3.75

With CG6908 #2, what does the deposit list?
infection score, replicate 1: 3.95

With Acbp5, what does the deposit list?
infection score, replicate 1: 0.61

With Roc2 #1, what was measured?
infection score, replicate 1: 14.5

For Roc2 #2, what was measured?
infection score, replicate 1: 11.3

How did the screen score CG31286?
infection score, replicate 1: 3.07

For CG3955, what was measured?
infection score, replicate 1: 3.74

2 entries from above, reformatted:
Roc2 #2
- infection score, replicate 1: 11.3

CG31286
- infection score, replicate 1: 3.07

Additional reagents follow:
What is on record for Cpr67Fb #1?
infection score, replicate 1: 2.13

With Cpr67Fb #2, what does the deposit list?
infection score, replicate 1: 20.2

What is on record for rempA?
infection score, replicate 1: 20.9

Which result is listed for TyrRS-m?
infection score, replicate 1: 8.29

Which result is listed for CG5681 #1?
infection score, replicate 1: 9.39

What is on record for CG5681 #2?
infection score, replicate 1: 1.59
